This is an account of results in patent publication US20080201790A1 (published 2008).

In this test the target is T1, MEKKCOOH (protein encoded by p-MEKKCOOH, expressed in COS cells) (mouse, UniProt P53349 1174-1493).
T1 construct: also called MEKK1COOH
T1 sequence: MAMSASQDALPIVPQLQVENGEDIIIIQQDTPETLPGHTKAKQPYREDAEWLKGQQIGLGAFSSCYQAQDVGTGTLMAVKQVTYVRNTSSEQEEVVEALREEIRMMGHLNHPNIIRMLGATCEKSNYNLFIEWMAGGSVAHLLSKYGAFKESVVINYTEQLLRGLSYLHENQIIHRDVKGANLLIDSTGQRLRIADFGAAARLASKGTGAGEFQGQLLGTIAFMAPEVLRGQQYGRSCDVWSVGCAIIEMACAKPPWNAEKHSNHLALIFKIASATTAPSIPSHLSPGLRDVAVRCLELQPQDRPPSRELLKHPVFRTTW
Nature of the test: GST agarose pull-down from COS cell lysate, anti-MEKK immunoblot.

B1: GST agarose (control) (other, UniProt P08515 1-218, looked up)
chain: MSPILGYWKIKGLVQPTRLLLEYLEEKYEEHLYERDEGDKWRNKKFELGLEFPNLPYYIDGDVKLTQSMAIIRYIADKHNMLGGCPKERAEISMLEGAVLDIRYGVSRIAYSKDFETLKVDFLSKLPEMLKMFEDRLCHKTYLNGDHVTHPDFMLYDALDVVLYMDPMCLDAFPKLVCFKKRIEAIPQIDKYLKSSKYIAWPLQGWQATFGGGDHPPK
notes: Negative control for the Ras pull-downs
For the molecule B1, the binding result is reported as “no binding”.
